# From patent US9540343B2 (Gilead Sciences, Inc., priority 2011, dated 2017)
# Test system: MT-4 cells
# Settings: uninfected MT-4 cells, same protocol as Test A, 5 days, CellTiter-Glo
smiles,measurement,value
"NC(=O)c1cc(-c2cccnc2[C@H](Cc2cc(F)cc(F)c2)NC(=O)Cn2nc(C(F)(F)F)c3c2[C@@H]2C[C@@H]2C3)ccc1F [Example 187, 5-(2-((S)-2-(3,5-difluorophenyl)-1-(2-((4aR,5aR)-3-(trifluoromethyl)-4,4-a,5,5a-tetrahydro-1H-cyclopropa[4,5]cyclopenta[1,2-c]pyrazol-1-yl)acetamido)ethyl)pyridin-3-yl)-2-fluorobenzamide]",CC50,18.9 µM
